Assay results reported in patent publication US10543221B2, “Beta-lactamase inhibitors, formulations, and uses thereof” (priority 2016, dated 2020).

Tested on: K. pneumoniae strain expressing KPC-2
Settings: single agent; K. pneumoniae ATCC 4683, phenotype KPC-2

`Cc1cc(C)c2c(CP(=O)(O)O)cc(=O)oc2c1` showed an MIC greater than 32 µg/mL.
